Pooled drug test results. Numbers come from NIAID ChemDB, via PubChem.

All rows: host cell toxicity; cells: HepG2.2.15; endpoint: CC50

Lines come from different laboratories, so protocols vary. Blank or dashed fields: not listed here. CCn: concentration that lowers growth or viability of the cells by n%.

| SMILES | read by | value |
|---|---|---|
| COc1ccc(-c2cc(=O)c3c(OC)cc(OC)c([C@H]4C(=O)c5c(OC)cc(OC)cc5O[C@@H]4c4ccc(OC)cc4)c3o2)cc1 | - | 14 µM |
| CCOC(=O)c1ccc(O)cc1 | MTT | 4620 µM |
| O=C(C=Cc1ccc(O)c(O)c1)O[C@@H]1C[C@](O)(C(=O)O)C[C@@H](O)[C@H]1O | MTT | >1380 µM |
| CC(=O)Oc1ccc(-c2cc(=O)c3c(OC(C)=O)c(-c4cc(-c5cc(=O)c6c(OC(C)=O)cc(OC(C)=O)cc6o5)ccc4OC(C)=O)c(OC(C)=O)cc3o2)cc1 | - | 263 µM |
| O=C(/C=C/c1ccc(O)c(O)c1)O[C@H]1CC(O)(C(=O)O)C[C@H](OC(=O)/C=C/c2ccc(O)c(O)c2)C1O | MTT | >1653 µM |
| Nc1nc(=O)n([C@H]2CC[C@@H](CO)O2)cc1Cl | - | 396 µM |
| O=C(O)c1ccc(O)c(O)c1 | MTT | >8340 µM |
| CO[C@H]1O[C@@H](n2ccc(=O)[nH]c2=O)C[C@@H]1N=[N+]=[N-] | - | 338 µM |
| O=c1ccc2ccc(O)cc2o1 | MTT | 489 µM |
| CC(C)C1=C(O)C2=C(C(=O)C1=O)[C@@]1(C)CCCC(C)(C)C1C[C@H]2O | sulforhodamine | 30 µg/mL |
| Nc1ncnc2c1ncn2CCOCP(=O)(O)O | - | 425 µM |
| O=C(/C=C/c1ccc(O)c(O)c1)O[C@@H]1[C@H](O)C[C@@](O)(C(=O)O)C[C@H]1OC(=O)/C=C/c1ccc(O)c(O)c1 | MTT | >1558 µM |
| Nc1ncnc2c1ncn2[C@H]1CC[C@@H](CO)O1 | - | 154 µM |
| COC(=O)C1(O)C[C@H](O)C(OC(=O)/C=C/c2ccc(O)c(O)c2)[C@@H](O)C1 | MTT | 1970 µM |
| Nc1ncnc2c1ncn2[C@@H]1O[C@H](CO)[C@@H](O)[C@@H]1O | - | 191 µM |
| COc1ccc([C@H]2OC[C@H]3[C@@H]2CO[C@@H]3c2ccc(OC)c(O)c2)cc1O | MTT | 1090 µM |
| CO[C@@H]1C[C@H]2C(C)(C)CCC[C@]2(C)C2=C1C(O)=C(C(C)C)C(=O)C2=O | sulforhodamine | 60 µg/mL |
| Nc1nc(=O)n([C@H]2CC[C@@H](CO)O2)cc1F | - | 336 µM |
| CCC(=O)c1ccc(O)c(OC)c1 | MTT | 2760 µM |
| O=c1[nH]c(=O)n([C@H]2C[C@H](F)[C@@H](CO)O2)cc1Cl | - | 362 µM |
| CC(c1ccc(O)c(O)c1)N1C=NC2C(N)=NC=NC21 | MTT | 1900 µM |
| Nc1nc2c(ncn2[C@H]2CC[C@@H](CO)O2)c(=O)[nH]1 | - | 197 µM |
| Nc1ncnc2c1ncn2[C@H]1C[C@H](O)[C@@H](COP([O-])(=S)O[C@H]2C[C@H](n3ccc(=O)[nH]c3=O)O[C@@H]2CO)O1 | - | >300 µM |
| Cc1cn([C@H]2C[C@H](F)[C@@H](CO)O2)c(=O)[nH]c1=O | - | 361 µM |
| O=c1cc(-c2ccc(O)c(-c3c(O)cc4oc(-c5ccc(O)cc5)cc(=O)c4c3O)c2)oc2cc(O)cc(O)c12 | - | >38 µM |

Repeating the first 3 entries:

| SMILES | read by | value |
|---|---|---|
| COc1ccc(-c2cc(=O)c3c(OC)cc(OC)c([C@H]4C(=O)c5c(OC)cc(OC)cc5O[C@@H]4c4ccc(OC)cc4)c3o2)cc1 | - | 14 µM |
| CCOC(=O)c1ccc(O)cc1 | MTT | 4620 µM |
| O=C(C=Cc1ccc(O)c(O)c1)O[C@@H]1C[C@](O)(C(=O)O)C[C@@H](O)[C@H]1O | MTT | >1380 µM |